Anti-infective test results gathered from many reports (values: NIAID ChemDB through PubChem).

All rows: tests in culture; agent: HIV-1; read by: cytopathic effect / MTT; measure: EC50

Neighbouring rows are from separate reports.

compound	cells	mutations	strain	result
CC(=O)c1ccc(C)cc1NC(C(N)=O)c1c(Cl)cccc1Cl	MT-4	-	NDK	0.022 µM
CCOC(=O)c1[nH]c2ccccc2c1S(=O)(=O)c1ccccc1N	MT-4	-	IIIB	>200 µM
CC(C)=C(C)CN1Cc2cccc3[nH]c(=O)n(c23)CC1C	MT-4	-	IIIB	>876 µM
COc1ccc(S(=O)(=O)N(CC(C)C)C[C@@H](O)[C@H](Cc2ccccc2)NC(=O)[C@H](C(C)C)N2CC(=O)N(Cc3csc(C)n3)C2=O)cc1	MT-4	-	-	0.005 µM
O=C1Nc2ccc(Cl)cc2Sc2c1[nH]c1ccccc21	MT-4	-	IIIB	≥22 µM
CC(=O)c1ccc(C)cc1N[C@@H](C(N)=O)c1c(Cl)cccc1Cl	MT-4	-	IIIB	2.1 µM
CCOCn1c(Cc2ccccc2)c(C(C)C)c(=O)[nH]c1=O	MT-4	-	RT-Y181C Mutant NNRTI-resistant	20 µM
Cc1ccc(/C=C2\C(=O)Nc3ccc(S(=O)(=O)N(CC(C)C)C[C@@H](O)[C@H](Cc4ccccc4)NC(=O)O[C@H]4CO[C@H]5OCC[C@H]54)cc32)s1	MT-4	-	LAI	0.013 µM
CC(=O)OCC1=C[C@@H]2C(=O)[C@]3(C=C(C)[C@H](OC(C)=O)[C@@]3(O)[C@@H]1OC(C)=O)[C@H](C)C[C@@H]1[C@H]2C1(C)C	MT-4	-	HE	0.099 µM
CC1Cn2c(=O)[nH]c3cccc(c32)CN1Cc1ncc[nH]1	MT-4	-	IIIB	>685 µM
CC(=O)c1ccc(C)cc1N[C@H](C(N)=O)c1c(Cl)cccc1Cl	MT-4	-	IIIB	0.005 µM
Cn1c2ccccc2c(=O)c2c(O)cccc21	MT-4	-	IIIB	>15 µg/mL
Cc1c(O)cccc1C(=O)N[C@@H](CSc1ccc2ccccc2c1)[C@H](O)CN1C[C@H]2CCCC[C@H]2C[C@H]1C(=O)NC(C)(C)C	MT-2	-	RF	0.0439 µg/mL
CC(C)CN(C[C@@H](O)[C@H](Cc1ccccc1)NC(=O)O[C@H]1CO[C@H]2OCC[C@H]21)S(=O)(=O)c1ccc2c(c1)/C(=C/c1ccc(-c3ccccn3)cc1)C(=O)N2	MT-4	-	LAI	0.023 µM
CCC(C)[C@@H](C(=O)N[C@@H](Cc1ccccc1)[C@H](O)CN(CC(C)C)S(=O)(=O)c1ccc(/C=N/O)cc1)N1CCN(Cc2cnccc2C)C1=O	MT-4	PR-L10F V32I M46I I47V Q68E I84V	A17 (LPV-resistant)	0.012 µM
C=C(C)COCn1c(Cc2cc(Cl)cc(Cl)c2)c(CC)c(=O)[nH]c1=O	MT-4	RT-Y181C	NNRTI-resistant (RT Y181C) N119	>10 µM
CC(=O)CN1Cc2cccc3[nH]c(=O)n(c23)CC1C	MT-4	-	IIIB	>760 µM
CC(C)CN(C[C@@H](O)[C@H](Cc1ccccc1)NC(=O)OC1COC2OCCC12)S(=O)(=O)c1ccc2c(c1)/C(=C/c1ccccc1)C(=O)N2	MT-4	-	LAI	0.059 µM
O=[N+]([O-])c1ccc(/C=N/Nc2ccnc3c(C(F)(F)F)cc(Cl)cc23)o1	MT-2	-	RF	0.0243 µg/mL
CCC(C)[C@@H](C(=O)N[C@@H](Cc1ccccc1)[C@H](O)CN(CC(C)C)S(=O)(=O)c1ccc(/C=N/O)cc1)N1CCN(Cc2cccc(COC)n2)C1=O	MT-4	PR-L10F V32I M46I I47V Q68E I84V	A17 (LPV-resistant)	0.003 µM
O=S(=O)(c1cccc2cnccc12)N1CCNCC1	MOLT-4	-	IIIB	>8.4 µg/mL
CCOCn1c(Cc2cccc(CCC3CO3)c2)c(CC)c(=O)[nH]c1=O	MT-4	-	IIIB	9 µM
C=CCOCn1c(Cc2cc(Cl)cc(Cl)c2)c(CC)c(=O)[nH]c1=O	MT-4	RT-Y181C	NNRTI-resistant (RT Y181C) N119	>10 µM
CC(C)(C)NC(=O)[C@@H]1C[C@@H]2CCCC[C@@H]2CN1C[C@H](O)[C@H](Cc1ccccc1)NC(=O)c1c(Cl)ccc(O)c1Cl	MT-2	-	RF	7.19 µg/mL
CCC(C)[C@@H](C(=O)N[C@@H](Cc1ccccc1)[C@H](O)CN(CC(C)C)S(=O)(=O)c1ccc(/C=N/O)cc1)N1CCN(Cc2ccc(C)nc2)C1=O	MT-4	-	-	0.002 µM
CCC(/C=C1\C(=O)Nc2ccc(S(=O)(=O)N(CC(C)C)C[C@@H](O)[C@H](Cc3ccccc3)NC(=O)O[C@H]3CO[C@H]4OCC[C@H]43)cc21)CC	MT-4	PR-L10F M46I M71V I84V	F	0.104 µM
CCOCn1c(Cc2ccccc2)c(C(C)C)c(=O)[nH]c1=O	MT-4	RT-K103N Y181C	NNRTI-resistant (RT K103N Y181C) A17	>10 µM
Cc1cn([C@H]2O[C@@H](CO)C[C@@H]2N=[N+]=[N-])c(=O)[nH]c1=O	CEM + CEM-SS	-	-	>100 µM
O=C1Nc2ccccc2S(=O)(=O)c2c1[nH]c1ccccc21	MT-4	-	IIIB	14 µM
CCC(C)[C@@H](C(=O)N[C@@H](Cc1ccccc1)[C@H](O)CN(CC1CCCC1)S(=O)(=O)c1ccc(/C=N/O)cc1)N1CCN(Cc2cccnc2)C1=O	MT-4	PR-L10F V32I M46I I47V Q68E I84V	A17 (LPV-resistant)	0.001 µM
Cc1c(F)cccc1C(=O)N[C@@H](Cc1ccccc1)[C@H](O)CN1C[C@H]2CCCC[C@H]2C[C@H]1C(=O)NC(C)(C)C	CEM	-	IIIB	0.973 µg/mL
O=C1Nc2ccccc2Sc2c1[nH]c1ccccc21	MT-4	-	IIIB	30 µM
C=CCCc1cccc(Cc2c(CC)c(=O)n(COCC)c(=O)n2COCC)c1	MT-4	-	IIIB	>45 µM
CC1Cn2c(=O)[nH]c3cccc(c32)CN1Cc1ccc[nH]1	MT-4	-	IIIB	>92 µM
Cc1cn([C@H]2O[C@@H](CO)C[C@@H]2F)c(=O)[nH]c1=O	CEM + CEM-SS	-	-	>100 µM
CCc1c(Cc2cc(Cl)cc(Cl)c2)n(COCC=C(C)C)c(=O)[nH]c1=O	MT-4	RT-K103N Y181C	NNRTI-resistant (RT K103N Y181C) A17	>10 µM
C=CCOc1cccc(Cc2c(CC)c(=O)n(COCC)c(=O)n2COCC)c1	MT-4	-	IIIB	>20 µM
CC(C)CN(C[C@@H](O)[C@H](Cc1ccccc1)NC(=O)O[C@H]1CO[C@H]2OCC[C@H]21)S(=O)(=O)c1ccc2c(c1)/C(=C/c1ccc(N(C)C)cc1)C(=O)N2	MT-4	PR-L10F M46I M71V I84V	F	0.14 µM
CCc1c(Cc2cc(Cl)cc(Cl)c2)n(COC2Cc3ccccc3C2)c(=O)[nH]c1=O	MT-4	RT-K103N Y181C	NNRTI-resistant (RT K103N Y181C) A17	>10 µM
CCOCn1c(Cc2cccc(CCC=O)c2)c(CC)c(=O)[nH]c1=O	MT-4	-	RT-Y181C Mutant NNRTI-resistant	51 µM

For reference, 2 entries again:

compound	cells	mutations	strain	result
Cc1c(F)cccc1C(=O)N[C@@H](Cc1ccccc1)[C@H](O)CN1C[C@H]2CCCC[C@H]2C[C@H]1C(=O)NC(C)(C)C	CEM	-	IIIB	0.973 µg/mL
CC(C)CN(C[C@@H](O)[C@H](Cc1ccccc1)NC(=O)O[C@H]1CO[C@H]2OCC[C@H]21)S(=O)(=O)c1ccc2c(c1)/C(=C/c1ccc(-c3ccccn3)cc1)C(=O)N2	MT-4	-	LAI	0.023 µM

Blank or dashed fields: not listed here. ECn is the concentration giving n% inhibition of infection, replication or growth.